The chains are these.
B1: [R23K]Pnc1a (peptide)
peptide: DCRYMFGDCEKDEDCCKHLGCKKKMKYCAWDFTFT
modifications: not checked
B2: [E13A]Pnc1a (peptide)
peptide: B1 peptide with E13A, K23R
modifications: not checked
B3: [D8G]Pnc1a (peptide)
peptide: B1 peptide with D8G, K23R
modifications: not checked
B4: [K24D]Pnc1a (peptide)
peptide: B1 peptide with K23R, K24D
modifications: not checked

Numbering of substitutions follows the chain as printed. Names and notes keep the numbering of the source.

The first assay deals with hNav1.8 (human), Q9Y5Y9. The assay can be described thus: cell-based or functional assay.
The molecule B1 registered an IC50, membrane potential assay greater than 30 µM and a Selectivity for Nav1.7, membrane potential assay greater than 120 fold.
The like results for B2 were, in that order, greater than 30 µM and greater than 217 fold.
The matching figures for B3: greater than 30 µM and greater than 616 fold.

The target in a further assay is hNav1.7 (human), Q15858. As to the kind of experiment: cell-based or functional assay.
B1 gave an IC50, membrane potential assay of 0.251 µM and a Selectivity for Nav1.7, membrane potential assay of 1 fold.
B2 displayed an IC50, membrane potential assay of 0.139 µM and a Selectivity for Nav1.7, membrane potential assay of 1 fold.
In turn, B3 yielded an IC50, membrane potential assay of 0.049 µM and a Selectivity for Nav1.7, membrane potential assay of 1 fold.
The molecule B4 returned an IC50, membrane potential assay (* indicates partial inhibition) of 0.51 µM and a Selectivity for Nav1.7, membrane potential assay of 1 fold.

The target in another assay is hNav1.3 (human), Q9NY46. As to the kind of experiment: cell-based or functional assay.
The molecule B1 returned an IC50, membrane potential assay of 5 µM and a Selectivity for Nav1.7, membrane potential assay of 19 fold.
The matching figures for B2: 2 µM and 18 fold.
For the molecule B3, the IC50, membrane potential assay is 0.658 µM and the Selectivity for Nav1.7, membrane potential assay stood at 13 fold.
The like results for B4 were, in that order, 20 µM and 39 fold.

The next assay addresses hNav1.5 (human), Q14524. As to the kind of experiment: cell-based or functional assay.
In the case of B1, the IC50, membrane potential assay was greater than 30 µM and the Selectivity for Nav1.7, membrane potential assay was greater than 120 fold.
B2 displayed an IC50, membrane potential assay greater than 30 µM and a Selectivity for Nav1.7, membrane potential assay greater than 217 fold.
The like results for B3 were, in that order, greater than 30 µM and greater than 616 fold.

The next assay concerns the target hNav1.2 (human), Q99250. As to the kind of experiment: cell-based or functional assay.
In the case of B1, the IC50, membrane potential assay is 3 µM and the Selectivity for Nav1.7, membrane potential assay stood at 14 fold.
B2: the IC50, membrane potential assay turned out to be 0.566 µM and the Selectivity for Nav1.7, membrane potential assay was 4 fold.
The like results for B3 were, in that order, 0.301 µM and 6 fold.
B4 came in with an IC50, membrane potential assay of 38 µM.

Another assay addresses hNav1.1 (human), P35498. As to the kind of experiment: cell-based or functional assay.
On to B1, for which the IC50, membrane potential assay was 8 µM and the Selectivity for Nav1.7, membrane potential assay is 33 fold.
In turn, B2 came in with an IC50, membrane potential assay of 4 µM and a Selectivity for Nav1.7, membrane potential assay of 29 fold.
The molecule B3 had an IC50, membrane potential assay of 2 µM and a Selectivity for Nav1.7, membrane potential assay of 35 fold.
For B4, the IC50, membrane potential assay is 32 µM and the Selectivity for Nav1.7, membrane potential assay amounted to 63 fold.

The target in the next assay is hNav1.6 (human), Q9UQD0. The assay can be described thus: cell-based or functional assay.
As to B1, the IC50, membrane potential assay is 16 µM and the Selectivity for Nav1.7, membrane potential assay amounted to 63 fold.
B2 showed an IC50, membrane potential assay of 8 µM and a Selectivity for Nav1.7, membrane potential assay of 61 fold.
The like results for B3 were, in that order, 2 µM and 46 fold.

The next assay deals with hNav1.4 (human), P35499. The assay can be described thus: cell-based or functional assay.
The molecule B1 came in with an IC50, membrane potential assay of 10 µM and a Selectivity for Nav1.7, membrane potential assay of 40 fold.
B2 registered an IC50, membrane potential assay of 5 µM and a Selectivity for Nav1.7, membrane potential assay of 36 fold.
The matching figures for B3: 2 µM and 48 fold.
The like results for B4 were, in that order, 12 µM and 24 fold.

For the origin of these results see patent US20190359662A1.
